The source of these data is PMC3026800, “Mechanism of Inhibition of Enveloped Virus Membrane Fusion by the Antiviral Drug Arbidol” (PLoS ONE, 2011).

The structures appear in SMILES notation.

Series [1] is described as follows: Epifluorescence microscopy of giant unilamellar liposomes with Arb.
A short description of series [2]: Surface plasmon resonance binding to immobilized DMPC liposomes (L1 chip). As to conditions: Arb pulsed onto DMPC liposome-coated chip (about 5000 RU). (In general: Surface plasmon resonance follows binding to a sensor surface in real time, without labels.)

In the case of `CCOC(=O)c1c(CSc2ccccc2)n(C)c2cc(Br)c(O)c(CN(C)C)c12.Cl` [Arb, 1H-indole-3-carboxylic acid, 6-bromo-4-[(dimethylamino)-methyl]-5-hydroxy-1-methyl-2-[(phenylthio)methyl]-, ethyl ester, monohydrochloride], the “Effect on GUV bilayer” value was “major overall membrane reorganization” in series [1] (20∶1 Arb-to-lipid ratio); “membrane inhomogeneities and invaginations appeared” in series [1] (Arb-to-lipid ratios higher than 1∶20); “unaffected” in series [1] (up to a 1∶20 Arb-to-lipid ratio). In series [1] (any condition, even at the highest ratio), the “Lysis of GUV” value is reported as “no lysis or membrane dislocation”. Besides, the “SPR signal of Arb on liposome-coated chip” value in series [2] is approximately 600 RU.
